Compound potency records, mixed from different reports. Data source: NIAID ChemDB in PubChem.

All rows: tests in culture; species: HIV-1; cells: PBMC; endpoint: EC50

Blank or dashed fields: not listed here. Rows are shuffled and stem from different studies. ECn is the concentration giving n% inhibition of infection, replication or growth. a–b is a range or a potency band.

smiles	strain or isolate	mutations	method	value
CC(C)CN(C[C@@H](O)[C@H](Cc1ccccc1)NC(=O)[C@@H](NC(=O)CNCc1cccc(F)c1)C(C)(C)C)S(=O)(=O)c1cccc(N)c1	IIIB	-	virus yield	<0.012 µM
C[C@@H](NC(=S)Nc1ccc(Cl)cn1)c1cccc2ccccc12	IIIB	-	p24	0.001 µM
[N-]=[N+]=N[C@H]1C[C@H](n2cc(/C(I)=C\I)c(=O)[nH]c2=O)O[C@@H]1CO	-	-	-	3.4 µM
Nc1ccn([C@H]2CC[C@@H](CO)O2)c(=O)n1	Isolate 8093	-	p24	0.11 µM
O=c1[nH]c(=O)n([C@H]2C[C@H](F)[C@@H](CO)O2)cc1/C(Br)=C/I	-	-	-	0.6 µM
c1cc(CN2CCCNCCNCCCNCC2)ccc1CN1CCCNCCNCCCNCC1	RF X4	-	antigen	0.005 µg/mL
Cc1cn([C@H]2C[C@H](N=[N+]=[N-])[C@@H](COP(=O)(O)OP(=O)(O)OP(=O)(O)O)O2)c(=O)[nH]c1=O	WEJO Clinical isolates	-	p24	0.0073 µM
CC(C)CN(C[C@@H](O)[C@H](Cc1ccccc1)NC(=O)O[C@H]1CCOC1)S(=O)(=O)c1ccc(N)cc1	HXB2	PR-L10R M46I L63P V82T I84V	p24	<0.55 µM
CCCCN1C(=O)[C@@H]([C@H](O)C2CCCCC2)NC(=O)C12CCN(Cc1ccc(Oc3ccc(C(=O)O)cc3)cc1)CC2	BAL R5	-	p24	0.0005 µM
Cc1cc(=O)c2ccc(N=C=S)cc2o1	NL4-3	-	p24 / ELISA	0.16 µM
C#CCn1ccc(=O)n(Cc2cc(C)cc(C)c2)c1=O	IIIB	-	-	1.08 µM
COC(=O)[C@H](C)NP(=O)(OC[C@@H]1C=C[C@H](n2cc(C)c(=O)[nH]c2=O)O1)Oc1ccc(Br)cc1	X165-8 NRTI resistant	RT-D67N T69N K70R K103N Y181C T215F K219E	p24	0.013 µM
O=C(O)P(=O)(O)O	7898 CLADE B CLADE B	-	p24	5 µM
Nc1ncnc2c1ncn2CCOCP(=O)(O)O	LAI	-	MTT	0.54 µM
CCO/N=C(\c1ccc(Br)cc1)C1CCN(C2(C)CCN(C(=O)c3c(C)cc[n+]([O-])c3C)CC2)CC1	ASM 80 R5 CLADE B	-	p24	0.0048 µM
CCc1cc(NCc2nc3c(Cl)ccc(Cl)c3o2)c(=O)[nH]c1C	Clinical isolate (RT M41 D67N T215Y)	RT-M41L D67N T215Y	p24	<0.2 µM
CC[C@H](C)[C@H]1NC(=O)[C@@H](NC(=O)[C@@H](CC(C)C)N(C)C(=O)c2cc3ccccc3s2)[C@@H](C)OC(=O)[C@H](Cc2ccc(OC)cc2)N(C)C(=O)[C@@H]2CCCN2C(=O)[C@H](CC(C)C)NC(=O)[C@H](C(C)C)OC(=O)C[C@@H]1O	JR	-	luciferase	0.012 µM
Cc1csc(NC(=S)N[C@H](C)c2cccc3ccccc23)n1	A17	RT-Y181C	p24	0.145 µM
COc1cccc2c1N(C(=O)OC(C)C)C(CSC)C(=S)N2	-	-	cytopathic effect / XTT	0.004 µM
Cc1cn([C@H]2C[C@H](N=[N+]=[N-])[C@@H](CO)O2)c(=O)[nH]c1=O	NL4-3	-	p24	0.001 µM
CC(C)Nc1cccnc1N1CCN(C(=O)c2cc3cc(NS(C)(=O)=O)ccc3[nH]2)CC1	Resistant (MDR) isolate	RT-M41L K103N T215Y	RT activity	14.4 µM
Cc1cc(C)cc(Cn2c(=O)ccn(CC#N)c2=O)c1	IIIB	-	-	0.59 µM
CCC[C@@]1(CCc2ccccc2)CC(O)=C([C@H](CC)c2cccc(NS(=O)(=O)c3ccc(C(F)(F)F)cn3)c2)C(=O)O1	Isolate N. Amer 6	-	p24	<0.12 µM
CC(C)[C@H](NC(=O)c1ccc2ccccc2n1)C(=O)N[C@@H](Cc1ccccc1)[C@H](O)CN1CC[C@@H](OCc2ccncc2)C[C@H]1C(=O)NC(C)(C)C	Wg3523	-	p24 / ELISA / antigen	0.024 µM
Cc1cc(C)cc(Cn2c(=S)ccn(CC#N)c2=O)c1	IIIB	-	-	0.049 µM
CCOC(=O)Cc1csc(NC(=S)N[C@H](C)c2cccc3ccccc23)n1	IIIB	-	p24	0.054 µM
CC(=O)N1CCC(C(=O)N(CCCN2CCC(Cc3ccc(C(N)=O)cc3)CC2)c2ccc(C)c(Cl)c2)CC1	HE R5X4	-	p24	>10 µM
O=c1[nH]cnc2c1ncn2[C@H]1CC[C@@H](CO)O1	ddI-resistant (RT K65R/L74V/M184V)	RT-K65R L74V M184V	p24	>10 µM
Cc1ccc(-c2ccc3c(c2)C=C(C(=O)Nc2ccc(C[N+](C)(C)C4CCOCC4)cc2)CCC3)cc1	JR-FL R5	-	p24	0.006 µM
Cc1ccnc2c1NC(=O)c1cccnc1N2C1CC1	A17V(RT-K103N Y181C)	RT-K103N Y181C	p24	>10 µM
Cc1ccnc2c1NC(=O)c1cccnc1N2C1CC1	Clinical isolate wild type	-	RT activity	0.09 µM
Cc1cc(C)cc(Cn2ccc(=O)n(Cc3cc(C)cc(C)c3)c2=O)c1	IIIB	-	-	0.52 µM
Cc1ccnc2c1NC(=O)c1cccnc1N2C1CC1	BCF01	RT-A98G K103R Y181C	-	15 µM
CCC(=O)c1ccc(F)c([C@H]2C[C@H]2NC(=O)Nc2ccc(Br)cn2)c1O	-	-	p24 / ELISA	0.006 µM
Cc1cn([C@H]2C[C@H](N=[N+]=[N-])[C@@H](CO)O2)c(=O)[nH]c1=O	IIIB	-	-	0.0019 µM
CCO/N=C(\c1ccc(Br)cc1)C1CCN(C2(C)CCN(C(=O)c3c(C)cc[n+]([O-])c3C)CC2)CC1	R5-19 (PR D30N RT M184V) R5 clinical isolate	PR-D30N RT-M184V	p24	0.0309 µM
Cc1ccccc1Cn1c(=O)ccn(CC#N)c1=O	IIIB	-	-	192 µM
CC(C)(C)OC(=O)N[C@@H](Cc1ccccc1)[C@H](O)CNC[C@@H](O)[C@H](Cc1ccccc1)NC(=O)C(C)(O)C(C)(C)C	A018C	-	p24	0.11 µM
O=c1ccn(Cc2c(F)cccc2F)c(=O)n1-c1ccccc1	IIIB	-	-	>204 µM
O=c1[nH]cnc2c1ncn2[C@H]1CC[C@@H](CO)O1	XM-AZT-resistant	RT-M41L D67N K70R T215Y K219Q	p24	<8.5 µM
CO[P@](=O)(c1cc(C)cc(/C=C/C#N)c1)c1c(C(N)=O)[nH]c2ccc(Cl)c(F)c12	-	K103N/Y181C	-	0.0027 µM
Cc1cc(C)cc(Cn2c(=O)c(I)cn(Cc3ccccc3)c2=O)c1	IIIB	-	-	41.7 µM
Nc1nc(NC2CC2)c2ncn([C@H]3C=C[C@@H](CO)C3)c2n1	-	MDR769	p24	0.9 µM
C[C@@H](NC(=S)Nc1ccc(Br)cn1)c1cccc2ccccc12	IIIB	-	p24	0.0015 µM
Oc1ccc(/C=C/c2cc(O)cc(O)c2)cc1	ddI-resistant (RT K65R/L74V/M184V)	-	p24	>5 µM
CC[C@H](C)[C@H]1NC(=O)[C@@H](NC(=O)OC(C)(C)C)[C@@H](C)OC(=O)[C@H](Cc2ccc(OC)cc2)N(C)C(=O)[C@@H]2CCCN2C(=O)[C@H](CC(C)C)NC(=O)C(C)(C)NC(=O)C[C@@H]1O	NL4-3	-	luciferase	59.17 µM
Cc1cn([C@H]2C[C@H](N=[N+]=[N-])[C@@H](CO)O2)c(=O)[nH]c1=O	LAI	-	-	<0.01 µM
CC(C)OC(=O)OCOP(=O)(CO[C@H](C)Cn1cnc2c(N)ncnc21)OCOC(=O)OC(C)C	G3 R5 subtype G/- (env/gag)	RT-V35T E40D K173T R211K L214F	p24	0.6 µM
CC[C@H](C)[C@H]1NC(=O)[C@@H](NC(=O)[C@@H](CC(C)C)N(C)S(=O)(=O)c2ccc(C)cc2)[C@@H](C)OC(=O)[C@H](Cc2ccc(OC)cc2)N(C)C(=O)[C@@H]2CCCN2C(=O)[C@H](CC(C)C)NC(=O)[C@H](C(C)C)OC(=O)C[C@@H]1O	NL4-3	-	-	17.3 µM
C[C@H](Cn1cnc2c(N)ncnc21)OCP(=O)(O)O	WEJO Clinical isolates	-	p24	<0.005 µM
[N-]=[N+]=N[C@H]1C[C@H](n2cc(/C(Cl)=C\I)c(=O)[nH]c2=O)O[C@@H]1CO	-	-	-	2.7 µM
O=C(Nc1cc(S(=O)(=O)O)cc2cc(S(=O)(=O)O)c(N=Nc3ccc(N=Nc4c(S(=O)(=O)O)cc5cc(S(=O)(=O)O)cc(NC(=O)c6cccc(Cl)c6Cl)c5c4O)cc3)c(O)c12)c1ccc(Cl)cc1Cl	BaL	-	-	0.03–0.12 µg/mL
Cc1cn([C@H]2C[C@H](N=[N+]=[N-])[C@@H](CO)O2)c(=O)[nH]c1=O	XM-T69SSS	RT-T69SSS L210W T215Y	p24	<56 µM
Cc1cn([C@H]2C[C@H](N=[N+]=[N-])[C@@H](CO)O2)c(=O)[nH]c1=O	410 clinical isolates AZT-resistant	-	p24	<6.6 µM

Again, the opening 5 rows:

smiles	strain or isolate	mutations	method	value
CC(C)CN(C[C@@H](O)[C@H](Cc1ccccc1)NC(=O)[C@@H](NC(=O)CNCc1cccc(F)c1)C(C)(C)C)S(=O)(=O)c1cccc(N)c1	IIIB	-	virus yield	<0.012 µM
C[C@@H](NC(=S)Nc1ccc(Cl)cn1)c1cccc2ccccc12	IIIB	-	p24	0.001 µM
[N-]=[N+]=N[C@H]1C[C@H](n2cc(/C(I)=C\I)c(=O)[nH]c2=O)O[C@@H]1CO	-	-	-	3.4 µM
Nc1ccn([C@H]2CC[C@@H](CO)O2)c(=O)n1	Isolate 8093	-	p24	0.11 µM
O=c1[nH]c(=O)n([C@H]2C[C@H](F)[C@@H](CO)O2)cc1/C(Br)=C/I	-	-	-	0.6 µM